Experimental data reported in BindingDB's records for doi:10.1016/j.bmcl.2020.127004 (Merck, 2020).

Test: Non-nucleoside inhibition of NS5B polymerase S365A mutant in HCV genotype 1a by Taqman probe based RT-PCR analysis

**Q.** For `CNC(=O)c1c(-c2ccc(F)cc2)oc2cc(N(C)S(C)(=O)=O)c(-c3ccc4c(n3)-c3cc5c(F)cccc5n3CO4)cc12` [US9265773, 2], which EC50 is on record?
**A.** 1 nM
